Experiment: Synchrotron radiation circular dichroism (SRCD), helical content estimated with BestSel
Assay type: physicochemical
Conditions: 25 °C; for % helix in solution: peptide 100 μM in buffer A (20 mM HEPES, 150 mM NaCl, pH 7.4), BestSel deconvolution; for % helix in TFE 20% / % helix in DOPC / % helix in DOPC/DOPG 8 :2 / % helix in POPC: peptide 100 μM, BestSel; for % helix in TFE 20%: 20% trifluoroethanol; for % helix in DOPC: DOPC SUVs 2 mM lipids; for % helix in DOPC/DOPG 8 :2: DOPC/DOPG 8:2 SUVs 2 mM lipids; for % helix in POPC: POPC SUVs 2 mM lipids

| SMILES | % helix in solution | % helix in TFE 20% | % helix in DOPC | % helix in DOPC/DOPG 8 :2 | % helix in POPC |
| --- | --- | --- | --- | --- | --- |
| CC[C@H](C)[C@H](NC(=O)[C@H](C)NC(=O)[C@H](Cc1c[nH]cn1)NC(=O)[C@@H](NC(=O)[C@H](CC(C)C)NC(=O)[C@H](CCC(N)=O)NC(=O)[C@H](CCC(N)=O)NC(=O)[C@H](C)NC(=O)[C@H](C)NC(=O)[C@H](C)NC(=O)[C@@H](NC(=O)[C@H](C)NC(=O)[C@H](CCC(N)=O)NC(=O)[C@H](C)NC(=O)CNC(=O)[C@H](CCC(N)=O)NC(=O)[C@H](CC(C)C)NC(=O)[C@H](C)NC(=O)[C@H](CCCNC(=N)N)NC(=O)[C@H](CCC(N)=O)NC(=O)CNC(=O)[C@H](Cc1c[nH]c2ccccc12)NC(=O)[C@H](Cc1c[nH]cn1)NC(=O)[C@H](C)NC(=O)[C@H](CO)NC(=O)[C@H](C)NC(C)=O)C(C)C)C(C)C)C(=O)N[C@@H](C)C(=O)N[C@@H](CC(C)C)C(=O)N[C@@H](CCSC)C(=O)N[C@H](C(=O)N[C@@H](CCC(N)=O)C(N)=O)[C@@H](C)O [P454 R2Q] | 8 ± 3% | 45 ± 3% | 16 ± 1% | 27 ± 2% | 18 ± 1% |
| CC[C@H](C)[C@H](NC(=O)[C@H](C)NC(=O)[C@H](Cc1c[nH]cn1)NC(=O)[C@@H](NC(=O)[C@H](CC(C)C)NC(=O)[C@H](CCCCN)NC(=O)[C@H](CCC(N)=O)NC(=O)[C@H](C)NC(=O)[C@H](C)NC(=O)[C@H](C)NC(=O)[C@@H](NC(=O)[C@H](C)NC(=O)[C@H](CCC(N)=O)NC(=O)[C@H](C)NC(=O)CNC(=O)[C@H](CCC(N)=O)NC(=O)[C@H](CC(C)C)NC(=O)[C@H](C)NC(=O)[C@H](CCCCN)NC(=O)[C@H](CCC(N)=O)NC(=O)CNC(=O)[C@H](Cc1c[nH]c2ccccc12)NC(=O)[C@H](Cc1c[nH]cn1)NC(=O)[C@H](C)NC(=O)[C@H](CO)NC(=O)[C@H](C)NC(C)=O)C(C)C)C(C)C)C(=O)N[C@@H](C)C(=O)N[C@@H](CC(C)C)C(=O)N[C@@H](CCSC)C(=O)N[C@H](C(=O)N[C@@H](CCC(N)=O)C(N)=O)[C@@H](C)O [P454 R12K] | 13 ± 2% | 72 ± 1% | 38 ± 2% | 53 ± 3% | 38 ± 1% |
| CC[C@H](C)[C@H](NC(=O)[C@H](C)NC(=O)[C@H](Cc1c[nH]cn1)NC(=O)[C@@H](NC(=O)[C@H](CC(C)C)NC(=O)[C@H](C)NC(=O)[C@H](CCC(N)=O)NC(=O)[C@H](C)NC(=O)[C@H](C)NC(=O)[C@H](C)NC(=O)[C@@H](NC(=O)[C@H](C)NC(=O)[C@H](CCC(N)=O)NC(=O)[C@H](C)NC(=O)CNC(=O)[C@H](CCC(N)=O)NC(=O)[C@H](CC(C)C)NC(=O)[C@H](C)NC(=O)[C@H](C)NC(=O)[C@H](CCC(N)=O)NC(=O)CNC(=O)[C@H](Cc1c[nH]c2ccccc12)NC(=O)[C@H](Cc1c[nH]cn1)NC(=O)[C@H](C)NC(=O)[C@H](CO)NC(=O)[C@H](C)NC(C)=O)C(C)C)C(C)C)C(=O)N[C@@H](C)C(=O)N[C@@H](CC(C)C)C(=O)N[C@@H](CCSC)C(=O)N[C@H](C(=O)N[C@@H](CCC(N)=O)C(N)=O)[C@@H](C)O [P454 R12A] | 23 ± 2% | 61 ± 2% | 49 ± 4% | 52 ± 2% | 50 ± 3% |
| CC[C@H](C)[C@H](NC(=O)[C@H](C)NC(=O)[C@H](Cc1c[nH]cn1)NC(=O)[C@@H](NC(=O)[C@H](CC(C)C)NC(=O)[C@H](CCC(=O)O)NC(=O)[C@H](CCC(N)=O)NC(=O)[C@H](C)NC(=O)[C@H](C)NC(=O)[C@H](C)NC(=O)[C@@H](NC(=O)[C@H](C)NC(=O)[C@H](CCC(N)=O)NC(=O)[C@H](C)NC(=O)CNC(=O)[C@H](CCC(N)=O)NC(=O)[C@H](CC(C)C)NC(=O)[C@H](C)NC(=O)[C@H](CCC(=O)O)NC(=O)[C@H](CCC(N)=O)NC(=O)CNC(=O)[C@H](Cc1c[nH]c2ccccc12)NC(=O)[C@H](Cc1c[nH]cn1)NC(=O)[C@H](C)NC(=O)[C@H](CO)NC(=O)[C@H](C)NC(C)=O)C(C)C)C(C)C)C(=O)N[C@@H](C)C(=O)N[C@@H](CC(C)C)C(=O)N[C@@H](CCSC)C(=O)N[C@H](C(=O)N[C@@H](CCC(N)=O)C(N)=O)[C@@H](C)O [P454 R12E] | 6 ± 1% | 55 ± 3% | 13 ± 1% | 17 ± 2% | 12 ± 3% |
| CC[C@H](C)[C@H](NC(=O)[C@H](C)NC(=O)[C@H](Cc1c[nH]cn1)NC(=O)[C@@H](NC(=O)[C@H](CC(C)C)NC(=O)[C@H](CCCNC(=N)N)NC(=O)[C@H](CCC(N)=O)NC(=O)[C@H](C)NC(=O)[C@H](C)NC(=O)[C@H](C)NC(=O)[C@@H](NC(=O)[C@H](C)NC(=O)[C@H](CCC(N)=O)NC(=O)[C@H](C)NC(=O)CNC(=O)[C@H](CCC(N)=O)NC(=O)[C@H](CC(C)C)NC(=O)[C@H](C)NC(=O)[C@H](CCCNC(=N)N)NC(=O)[C@H](CCC(N)=O)NC(=O)CNC(=O)[C@H](Cc1c[nH]c2ccccc12)NC(=O)[C@H](Cc1c[nH]cn1)NC(=O)[C@H](C)NC(=O)[C@H](CO)NC(=O)[C@H](C)NC(C)=O)C(C)C)C(C)C)C(=O)N[C@@H](C)C(=O)N[C@@H](CC(C)C)C(=O)N[C@@H](CCSC)C(=O)N[C@H](C(=O)N[C@@H](CCC(N)=O)C(N)=O)[C@@H](C)O [Peptide P454] | 17 ± 2% | 60 ± 2% | 45 ± 5% | 62 ± 1% | 42 ± 3% |
| CC[C@H](C)[C@H](NC(=O)[C@H](C)NC(=O)[C@H](Cc1c[nH]cn1)NC(=O)[C@@H](NC(=O)[C@H](CC(C)C)NC(=O)[C@H](CCC(N)=O)NC(=O)[C@H](CCC(N)=O)NC(=O)[C@H](C)NC(=O)[C@H](C)NC(=O)[C@H](C)NC(=O)[C@@H](NC(=O)[C@H](C)NC(=O)[C@H](CCC(N)=O)NC(=O)[C@H](C)NC(=O)CNC(=O)[C@H](CCC(N)=O)NC(=O)[C@H](CC(C)C)NC(=O)[C@H](C)NC(=O)[C@H](CCC(N)=O)NC(=O)[C@H](CCC(N)=O)NC(=O)CNC(=O)[C@H](Cc1c[nH]c2ccccc12)NC(=O)[C@H](Cc1c[nH]cn1)NC(=O)[C@H](C)NC(=O)[C@H](CO)NC(=O)[C@H](C)NC(C)=O)C(C)C)C(C)C)C(=O)N[C@@H](C)C(=O)N[C@@H](CC(C)C)C(=O)N[C@@H](CCSC)C(=O)N[C@H](C(=O)N[C@@H](CCC(N)=O)C(N)=O)[C@@H](C)O [P454 R12Q] | 8 ± 4% | 50 ± 2% | 26 ± 3% | 33 ± 3% | 27 ± 2% |
| CC[C@H](C)[C@H](NC(=O)[C@H](C)NC(=O)[C@H](Cc1c[nH]cn1)NC(=O)[C@@H](NC(=O)[C@H](CC(C)C)NC(=O)[C@H](CCCNC(=N)N)NC(=O)[C@H](CCC(N)=O)NC(=O)[C@H](C)NC(=O)[C@H](C)NC(=O)[C@H](C)NC(=O)[C@@H](NC(=O)[C@H](C)NC(=O)[C@H](CCC(N)=O)NC(=O)[C@H](C)NC(=O)CNC(=O)[C@H](CCC(N)=O)NC(=O)[C@H](CC(C)C)NC(=O)[C@H](C)NC(=O)[C@H](CCC(N)=O)NC(=O)[C@H](CCC(N)=O)NC(=O)CNC(=O)[C@H](Cc1c[nH]c2ccccc12)NC(=O)[C@H](Cc1c[nH]cn1)NC(=O)[C@H](C)NC(=O)[C@H](CO)NC(=O)[C@H](C)NC(C)=O)C(C)C)C(C)C)C(=O)N[C@@H](C)C(=O)N[C@@H](CC(C)C)C(=O)N[C@@H](CCSC)C(=O)N[C@H](C(=O)N[C@@H](CCC(N)=O)C(N)=O)[C@@H](C)O [P454 R1Q] | 13 ± 1% | 41 ± 3% | 27 ± 1% | 38 ± 2% | 27 ± 1% |

Reference: article PMC5705984, “Membrane-Active Properties of an Amphitropic Peptide from the CyaA Toxin Translocation Region” (Toxins, 2017)
